# Where “and” joins values, the source holds several entries; their conditions need not be identical. Identical values can stand only once. Like-named read-outs stand apart in the source and are kept apart here.
# Key:
# SARS-CoV-2 (WA1/2020) = assay: SARS-CoV-2 infection of Huh-7.5 cells (nucleocapsid staining); conditions: 24h
# MEKK3 = target: T1, MEKK3 (Homo sapiens, UniProt Q99759); assay: HotSpot kinase assay; type: biochemical; conditions: 10µM
# T1 construct: purchased Reaction Biology Corporation
# MEKK2 = target: T2, MEKK2 (Homo sapiens, UniProt Q9Y2U5); assay: HotSpot kinase assay; type: biochemical; conditions: 10µM
# T2 construct: purchased Reaction Biology Corporation
# CDK19/cyclin C = target: T3, CDK19/cyclin C (Homo sapiens, UniProt Q9BWU1); assay: HotSpot kinase assay; type: biochemical; conditions: 10µM
# T3 construct: purchased Reaction Biology Corporation
# MELK = target: T4, MELK (Homo sapiens, UniProt Q14680); assay: HotSpot kinase assay; type: biochemical; conditions: 10µM
# T4 construct: purchased Reaction Biology Corporation
# FRK/PTK5 = target: T5, FRK/PTK5 (Homo sapiens, UniProt P42685); assay: HotSpot kinase assay; type: biochemical; conditions: 10µM
# T5 construct: purchased Reaction Biology Corporation
# c-Src = target: T6, c-Src (Homo sapiens, UniProt P12931); type: biochemical; conditions: 10µM
# T6 construct: purchased Reaction Biology Corporation
# Aurora B = target: T7, Aurora B (Homo sapiens, UniProt Q96GD4); assay: HotSpot kinase assay; type: biochemical; conditions: 10µM
# T7 construct: purchased Reaction Biology Corporation
# ULK2 = target: T8, ULK2 (Homo sapiens, UniProt Q8IYT8); assay: HotSpot kinase assay; type: biochemical; conditions: 10µM
# T8 construct: purchased Reaction Biology Corporation
# CK1a1L = target: T9, CK1a1L (Homo sapiens, UniProt Q8N752); assay: HotSpot kinase assay; type: biochemical; conditions: 10µM
# T9 construct: purchased Reaction Biology Corporation
# FLT1/VEGFR1 = target: T10, FLT1/VEGFR1 (Homo sapiens, UniProt P17948); assay: HotSpot kinase assay; type: biochemical; conditions: 10µM
# T10 construct: purchased Reaction Biology Corporation
# IGF1R = target: T11, IGF1R (Homo sapiens, UniProt P08069); assay: HotSpot kinase assay; type: biochemical; conditions: 10µM
# T11 construct: purchased Reaction Biology Corporation
# mTOR/FRAP1 = target: T12, mTOR/FRAP1 (Homo sapiens, UniProt P42345); assay: HotSpot kinase assay; type: biochemical; conditions: 10µM
# T12 construct: purchased Reaction Biology Corporation
# SSTK/TSSK6 = target: T13, SSTK/TSSK6 (Homo sapiens, UniProt Q9BXA6); assay: HotSpot kinase assay; type: biochemical; conditions: 10µM
# T13 construct: purchased Reaction Biology Corporation
# DMPK2 = target: T14, DMPK2 (Homo sapiens, UniProt Q6DT37); assay: HotSpot kinase assay; type: biochemical; conditions: 10µM
# T14 construct: purchased Reaction Biology Corporation
# MEKK6 = target: T15, MEKK6 (Homo sapiens, UniProt O95382); assay: HotSpot kinase assay; type: biochemical; conditions: 10µM
# T15 construct: purchased Reaction Biology Corporation
# LOK/STK10 = target: T16, LOK/STK10 (Homo sapiens, UniProt O94804); assay: HotSpot kinase assay; type: biochemical; conditions: 10µM
# T16 construct: purchased Reaction Biology Corporation
# FLT4/VEGFR3 = target: T17, FLT4/VEGFR3 (Homo sapiens, UniProt P35916); assay: HotSpot kinase assay; type: biochemical; conditions: 10µM
# T17 construct: purchased Reaction Biology Corporation
# SNRK = target: T18, SNRK (Homo sapiens, UniProt Q9NRH2); assay: HotSpot kinase assay; type: biochemical; conditions: 10µM
# T18 construct: purchased Reaction Biology Corporation
# HGK/MAP4K4 = target: T19, HGK/MAP4K4 (Homo sapiens, UniProt O95819); assay: HotSpot kinase assay; type: biochemical; conditions: 10µM
# T19 construct: purchased Reaction Biology Corporation
# VSV-S = type: cell-based, VSV pseudotyped with SARS-CoV-2 spike
# GRK6 = target: T20, GRK6 (Homo sapiens, UniProt P43250); assay: HotSpot kinase assay; type: biochemical; conditions: 10µM
# T20 construct: purchased Reaction Biology Corporation
# TLK1 = target: T21, TLK1 (Homo sapiens, UniProt Q9UKI8); assay: HotSpot kinase assay; type: biochemical; conditions: 10µM
# T21 construct: purchased Reaction Biology Corporation
# CTK/MATK = target: T22, CTK/MATK (Homo sapiens, UniProt P42679); assay: HotSpot kinase assay; type: biochemical; conditions: 10µM
# T22 construct: purchased Reaction Biology Corporation
# RSK1 = target: T23, RSK1 (Homo sapiens, UniProt Q15418); assay: HotSpot kinase assay; type: biochemical; conditions: 10µM
# T23 construct: purchased Reaction Biology Corporation
# CAMK1a = target: T24, CAMK1a (Homo sapiens, UniProt Q14012); assay: HotSpot kinase assay; type: biochemical; conditions: 10µM
# T24 construct: purchased Reaction Biology Corporation
# HPK1/MAP4K1 = target: T25, HPK1/MAP4K1 (Homo sapiens, UniProt Q92918); assay: HotSpot kinase assay; type: biochemical; conditions: 10µM
# T25 construct: purchased Reaction Biology Corporation
# CLK4 = target: T26, CLK4 (Homo sapiens, UniProt Q9HAZ1); assay: HotSpot kinase assay; type: biochemical; conditions: 10µM
# T26 construct: purchased Reaction Biology Corporation
# DYRK4 = target: T27, DYRK4 (Homo sapiens, UniProt Q9NR20); assay: HotSpot kinase assay; type: biochemical; conditions: 10µM
# T27 construct: purchased Reaction Biology Corporation
# TXK = target: T28, TXK (Homo sapiens, UniProt P42681); assay: HotSpot kinase assay; type: biochemical; conditions: 10µM
# T28 construct: purchased Reaction Biology Corporation
structure (smiles),measurement,setting,value
CO[C@@H]1[C@H](N(C)C(=O)CCC(=O)NCc2cn(CCCS(=O)(=O)O)nn2)C[C@H]2O[C@]1(C)n1c3ccccc3c3c4c(c5c6ccccc6n2c5c31)C(=O)NC4 [CIMSS],infection (SARS-CoV-2 positive cells relative to the DMSO control),SARS-CoV-2 (WA1/2020); 3.125 uM,117.6404% and 65.81% and 78.32%
same,infection (SARS-CoV-2 positive cells relative to the DMSO control),SARS-CoV-2 (WA1/2020); 25 uM,43.9% and 23.99% and 23%
same,infection (SARS-CoV-2 positive cells relative to the DMSO control),SARS-CoV-2 (WA1/2020); 50 uM,18.57% and 11.45% and 20.69%
same,infection (SARS-CoV-2 positive cells relative to the DMSO control),"SARS-CoV-2 (WA1/2020); MOI 0.25, 0.78125 uM",85.81% and 65.46% and 126.7822%
same,% Enzyme Activity (relative to DMSO controls),MEKK3,5.56%
same,% Enzyme Activity (relative to DMSO controls),MEKK2,8.26%
same,% Enzyme Activity (relative to DMSO controls),CDK19/cyclin C,37.25%
same,% Enzyme Activity (relative to DMSO controls),MELK,1.31%
same,% Enzyme Activity (relative to DMSO controls),FRK/PTK5,4.46%
same,% Enzyme Activity (relative to DMSO controls),c-Src,2.85%
same,% Enzyme Activity (relative to DMSO controls),Aurora B,2.83%
same,% Enzyme Activity (relative to DMSO controls),ULK2,13.54%
same,% Enzyme Activity (relative to DMSO controls),CK1a1L,78.55%
same,% Enzyme Activity (relative to DMSO controls),FLT1/VEGFR1,2.85%
same,% Enzyme Activity (relative to DMSO controls),IGF1R,6.42%
same,% Enzyme Activity (relative to DMSO controls),mTOR/FRAP1,107.76%
same,% Enzyme Activity (relative to DMSO controls),SSTK/TSSK6,94.64%
same,% Enzyme Activity (relative to DMSO controls),DMPK2,9.78%
same,% Enzyme Activity (relative to DMSO controls),MEKK6,107.81%
same,% Enzyme Activity (relative to DMSO controls),LOK/STK10,3.02%
same,% Enzyme Activity (relative to DMSO controls),FLT4/VEGFR3,1.86%
same,% Enzyme Activity (relative to DMSO controls),SNRK,72.07%
same,% Enzyme Activity (relative to DMSO controls),HGK/MAP4K4,0.44% and -0.12%
same,infectious viral yields relative to DMSO control,VSV-S,39.3 and 47.1
same,infectious viral yields relative to DMSO control,VSV-S; conc 10,28 and 34.8
same,infectious viral yields relative to DMSO control,VSV-S; conc 50,28 and 26
same,infectious viral yields relative to DMSO control,VSV-S; conc 100,25 and 24.2
same,% Enzyme Activity (relative to DMSO controls),GRK6,8.11%
same,% Enzyme Activity (relative to DMSO controls),TLK1,25.57%
same,% Enzyme Activity (relative to DMSO controls),CTK/MATK,24.07%
same,% Enzyme Activity (relative to DMSO controls),RSK1,2.95%
same,% Enzyme Activity (relative to DMSO controls),CAMK1a,28.61%
same,% Enzyme Activity (relative to DMSO controls),HPK1/MAP4K1,2.01%
same,% Enzyme Activity (relative to DMSO controls),CLK4,10.10%
same,% Enzyme Activity (relative to DMSO controls),DYRK4,91.31%
same,% Enzyme Activity (relative to DMSO controls),TXK,3.62%

# — paper PMC9569420 (Communications Biology, 2022)
